Key:
[1] = biological target: T1, LukE, recombinant polyhistidine-tagged variant (S. aureus); experiment: ELISA, biotinylated toxin on streptavidin plate
T1 chain: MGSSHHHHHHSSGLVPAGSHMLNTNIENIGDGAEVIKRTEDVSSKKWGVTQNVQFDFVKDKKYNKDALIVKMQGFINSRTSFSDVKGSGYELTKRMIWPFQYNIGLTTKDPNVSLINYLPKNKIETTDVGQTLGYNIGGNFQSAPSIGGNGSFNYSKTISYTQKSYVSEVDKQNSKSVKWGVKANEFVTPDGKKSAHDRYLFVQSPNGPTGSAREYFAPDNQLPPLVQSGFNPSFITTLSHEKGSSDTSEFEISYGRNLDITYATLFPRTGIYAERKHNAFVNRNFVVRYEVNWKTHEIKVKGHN

[2] = biological target: T1, LukE, recombinant polyhistidine-tagged …; experiment: ELISA on LukE and neutralisation assay
[3] = biological target: T1, LukE, recombinant polyhistidine-tagged …; experiment: ELISA, biotinylated LukE on streptavidin plate

Row | Binder | binding result [3] | also measured
1 | 3×3 linker variant of Construct 11 (bispecific antibody) heavy: EVQLVETGGGLVKPGGSLRLSCSASRFSFRDYYMTWIRQAPGKGPEWVSHISGSGSTIYYADSVRGRFTISRDNAKSSLYLQMDSLQADDTAVYYCARGGRATSYYWVHWGPGTLVTVSSASTKGPSVFPLAPSSKSTSGGTAALGCLVKDYFPEPVTVSWNSGALTSGVHTFPAVLQSSGLYSLSSVVTVPSSSLGTQTYICNVNHKPSNTKVDKKVEPKSCDKTHTCPPCPAPPVAGPDVFLFPPKPKDTLMISRTPEVTCVVVDVSHEDPEVKFNWYVDGVEVHNAKTKPREEQYNSTYRVVSVLTVLHQDWLNGKEYKCKVSNAALPAPIAKTISKAKGQPREPQVYTLPPSRDELTKNQVSLTCLVKGFYPSDIAVEWESNGQPENNYKTTPPVLDSDGSFFLYSKLTVDKSRWQQGNVFSCSVMHEALHNRFTQKSLSLSPGKGGGGSGGGGSGGGGSMLPAPKNLVVSRVTEDSARLSWTAPDAAFDSFHIEYAEPWVWGEAIVLTVPGSERSYDLTGLKPGTEYVVFIGGVKGGHNSTPLSAIFTTGGGGSGGGGSGGGGSMLPAPKNLVVSRVTEDSARLSWTAPDAAFDSFWITYEEKFYRGEAIVLTVPGSERSYDLTGLKPGTEYKVWIVGVKGGQGSWPLSAIFTT light: not shown | – | binding result [1]: binds
2 | 3×2 linker variant of Construct 11 (bispecific antibody) heavy: EVQLVETGGGLVKPGGSLRLSCSASRFSFRDYYMTWIRQAPGKGPEWVSHISGSGSTIYYADSVRGRFTISRDNAKSSLYLQMDSLQADDTAVYYCARGGRATSYYWVHWGPGTLVTVSSASTKGPSVFPLAPSSKSTSGGTAALGCLVKDYFPEPVTVSWNSGALTSGVHTFPAVLQSSGLYSLSSVVTVPSSSLGTQTYICNVNHKPSNTKVDKKVEPKSCDKTHTCPPCPAPPVAGPDVFLFPPKPKDTLMISRTPEVTCVVVDVSHEDPEVKFNWYVDGVEVHNAKTKPREEQYNSTYRVVSVLTVLHQDWLNGKEYKCKVSNAALPAPIAKTISKAKGQPREPQVYTLPPSRDELTKNQVSLTCLVKGFYPSDIAVEWESNGQPENNYKTTPPVLDSDGSFFLYSKLTVDKSRWQQGNVFSCSVMHEALHNRFTQKSLSLSPGKGGGGSGGGGSGGGGSMLPAPKNLVVSRVTEDSARLSWTAPDAAFDSFHIEYAEPWVWGEAIVLTVPGSERSYDLTGLKPGTEYVVFIGGVKGGHNSTPLSAIFTTGGGGSGGGGSMLPAPKNLVVSRVTEDSARLSWTAPDAAFDSFWITYEEKFYRGEAIVLTVPGSERSYDLTGLKPGTEYKVWIVGVKGGQGSWPLSAIFTT light: not shown | – | binding result [1]: binds
3 | Luk27 LukE binding FN3 domain (designed binder) LPAPKNLVVSRVTEDSARLSWTAPDAAFDSFPIVYQEWQFYGEAIVLTVPGSERSYDLTGLKPGTEYLVDIYGVKGGSWSYPLSAIFTT | – | binding result [2]: binds
4 | Luk27D70A (designed binder) LPAPKNLVVSRVTEDSARLSWTAPDAAFDSFPIVYQEWQFYGEAIVLTVPGSERSYDLTGLKPGTEYLVAIYGVKGGSWSYPLSAIFTT | no binding (tested: 1 µM) | –
5 | Luk27W38A (designed binder) LPAPKNLVVSRVTEDSARLSWTAPDAAFDSFPIVYQEAQFYGEAIVLTVPGSERSYDLTGLKPGTEYLVDIYGVKGGSWSYPLSAIFTT | binds | –
6 | Luk27W79A (designed binder) LPAPKNLVVSRVTEDSARLSWTAPDAAFDSFPIVYQEWQFYGEAIVLTVPGSERSYDLTGLKPGTEYLVDIYGVKGGSASYPLSAIFTT | binds | –
7 | Luk27L68A (designed binder) LPAPKNLVVSRVTEDSARLSWTAPDAAFDSFPIVYQEWQFYGEAIVLTVPGSERSYDLTGLKPGTEYAVDIYGVKGGSWSYPLSAIFTT | binds | –
8 | Luk27Y81A (designed binder) LPAPKNLVVSRVTEDSARLSWTAPDAAFDSFPIVYQEWQFYGEAIVLTVPGSERSYDLTGLKPGTEYLVDIYGVKGGSWSAPLSAIFTT | binds | –
9 | Luk27Y72A (designed binder) LPAPKNLVVSRVTEDSARLSWTAPDAAFDSFPIVYQEWQFYGEAIVLTVPGSERSYDLTGLKPGTEYLVDIAGVKGGSWSYPLSAIFTT | binds | –
10 | Luk26 LukE binding FN3 domain (designed binder) LPAPKNLVVSRVTEDSARLSWTAPDAAFDSFHIEYAEPWVWGEAIVLTVPGSERSYDLTGLKPGTEYVVFIGGVKGGHNSTPLSAIFTT | – | binding result [2]: binds
11 | Luk26W41A (designed binder) LPAPKNLVVSRVTEDSARLSWTAPDAAFDSFHIEYAEPWVAGEAIVLTVPGSERSYDLTGLKPGTEYVVFIGGVKGGHNSTPLSAIFTT | no binding (tested: 1 µM) | –
12 | Luk26F70A (designed binder) LPAPKNLVVSRVTEDSARLSWTAPDAAFDSFHIEYAEPWVWGEAIVLTVPGSERSYDLTGLKPGTEYVVAIGGVKGGHNSTPLSAIFTT | binds | –
13 | Luk26E34A (designed binder) LPAPKNLVVSRVTEDSARLSWTAPDAAFDSFHIAYAEPWVWGEAIVLTVPGSERSYDLTGLKPGTEYVVFIGGVKGGHNSTPLSAIFTT | binds | –
14 | Luk26G72A (designed binder) LPAPKNLVVSRVTEDSARLSWTAPDAAFDSFHIEYAEPWVWGEAIVLTVPGSERSYDLTGLKPGTEYVVFIAGVKGGHNSTPLSAIFTT | binds | –
15 | Luk26W39A (designed binder) LPAPKNLVVSRVTEDSARLSWTAPDAAFDSFHIEYAEPAVWGEAIVLTVPGSERSYDLTGLKPGTEYVVFIGGVKGGHNSTPLSAIFTT | no binding (tested: 1 µM) | –
16 | 3×4 linker variant of Construct 11 (bispecific antibody) heavy: EVQLVETGGGLVKPGGSLRLSCSASRFSFRDYYMTWIRQAPGKGPEWVSHISGSGSTIYYADSVRGRFTISRDNAKSSLYLQMDSLQADDTAVYYCARGGRATSYYWVHWGPGTLVTVSSASTKGPSVFPLAPSSKSTSGGTAALGCLVKDYFPEPVTVSWNSGALTSGVHTFPAVLQSSGLYSLSSVVTVPSSSLGTQTYICNVNHKPSNTKVDKKVEPKSCDKTHTCPPCPAPPVAGPDVFLFPPKPKDTLMISRTPEVTCVVVDVSHEDPEVKFNWYVDGVEVHNAKTKPREEQYNSTYRVVSVLTVLHQDWLNGKEYKCKVSNAALPAPIAKTISKAKGQPREPQVYTLPPSRDELTKNQVSLTCLVKGFYPSDIAVEWESNGQPENNYKTTPPVLDSDGSFFLYSKLTVDKSRWQQGNVFSCSVMHEALHNRFTQKSLSLSPGKGGGGSGGGGSGGGGSMLPAPKNLVVSRVTEDSARLSWTAPDAAFDSFHIEYAEPWVWGEAIVLTVPGSERSYDLTGLKPGTEYVVFIGGVKGGHNSTPLSAIFTTGGGGSGGGGSGGGGSGGGGSMLPAPKNLVVSRVTEDSARLSWTAPDAAFDSFWITYEEKFYRGEAIVLTVPGSERSYDLTGLKPGTEYKVWIVGVKGGQGSWPLSAIFTT light: not shown | – | binding result [1]: binds
17 | 1×4 linker variant of Construct 11 (bispecific antibody) heavy: EVQLVETGGGLVKPGGSLRLSCSASRFSFRDYYMTWIRQAPGKGPEWVSHISGSGSTIYYADSVRGRFTISRDNAKSSLYLQMDSLQADDTAVYYCARGGRATSYYWVHWGPGTLVTVSSASTKGPSVFPLAPSSKSTSGGTAALGCLVKDYFPEPVTVSWNSGALTSGVHTFPAVLQSSGLYSLSSVVTVPSSSLGTQTYICNVNHKPSNTKVDKKVEPKSCDKTHTCPPCPAPPVAGPDVFLFPPKPKDTLMISRTPEVTCVVVDVSHEDPEVKFNWYVDGVEVHNAKTKPREEQYNSTYRVVSVLTVLHQDWLNGKEYKCKVSNAALPAPIAKTISKAKGQPREPQVYTLPPSRDELTKNQVSLTCLVKGFYPSDIAVEWESNGQPENNYKTTPPVLDSDGSFFLYSKLTVDKSRWQQGNVFSCSVMHEALHNRFTQKSLSLSPGKGGGGSMLPAPKNLVVSRVTEDSARLSWTAPDAAFDSFHIEYAEPWVWGEAIVLTVPGSERSYDLTGLKPGTEYVVFIGGVKGGHNSTPLSAIFTTGGGGSGGGGSGGGGSGGGGSMLPAPKNLVVSRVTEDSARLSWTAPDAAFDSFWITYEEKFYRGEAIVLTVPGSERSYDLTGLKPGTEYKVWIVGVKGGQGSWPLSAIFTT light: not shown | – | binding result [1]: binds
18 | Luk38 LukE binding FN3 domain (designed binder) LPAPKNLVVSRVTEDSARLSWTAPDAAFDSFLIQYQESEKVGEAIVLTVPGSERSYDLTGLKPGTEYTVSIYGVELIYHGWLDFVFSNPLSAIFTT | – | binding result [2]: binds

From patent publication US20190127444A1, “Compositions and methods for anti-staphylococcal biologic agents” (NEW YORK UNIVERSITY, published 2019)
